Anti-infective test results gathered from many reports (values: NIAID ChemDB through PubChem).

Shared fields: whole-cell or culture tests; species: Rhinovirus

Neighbouring rows are from separate reports. Blank or dashed fields: not listed here. ECn is the concentration giving n% inhibition of infection, replication or growth. Inhibition is in % at the dose shown (toxicity tests: loss of growth or viability).

structure,cell line,dose,endpoint,read by,strain,value
O=S(=O)([O-])c1cc(O)c2ccccc2c1,Human amnion AV3 cells,10 µg/mL,inhibition,cytopathic effect,,0%
Cc1cc(CCCCCOc2c(Cl)cc(C3=NCCO3)cc2Cl)on1,HeLa,,EC50,plaque count,TYPE 36,0.007 µg/mL
CCOC(=O)c1ccc(OCCC2CCN(c3ccc(C)nn3)CC2)cc1,KB,,EC50,neutral red,1963M-CV40 (LDL receptor group 62),0.049 µM
CSc1nsc(-c2ccc(OCCCCOc3ccc(C#N)cc3)cc2)c1C#N,HELA-OHIO,,EC50,cytopathic effect,Serotype 15 (group B),>2 µM
O=S(=O)([O-])c1ccc2c(O)cc(S(=O)(=O)[O-])cc2c1,Human amnion AV3 cells,5 µg/mL,inhibition,cytopathic effect,,10%
Fc1cccc(Nc2nc(C(F)(F)F)nc3c2ncn3Cc2ccc(C(F)(F)F)cc2)c1,M-HELA,,EC50,plaque count,Serotype 5,>40 µM
CN(C)c1nc(C(F)(F)F)nc2c1ncn2Cc1ccc([N+](=O)[O-])cc1,M-HELA,8 µM,inhibition,plaque count,Serotype 30,28%
O=S(=O)([O-])c1cc(S(=O)(=O)[O-])c2cc(NS(=O)(=O)c3ccccc3)ccc2c1,Human amnion AV3 cells,10 µg/mL,inhibition,cytopathic effect,,20%
Cc1ccc(Cn2cnc3c(N(C)C)nc(C(F)(F)F)nc32)c(C)c1,M-HELA,8 µM,inhibition,plaque count,Serotype 13,13%
O=S(=O)(O)c1ccc2cc(O)c(S(=O)(=O)O)cc2c1,Human amnion AV3 cells,50 µg/mL,inhibition,cytopathic effect,,0%
Fc1cccc(Cn2cnc3c(Nc4cccc(F)c4)nc(C(F)(F)F)nc32)c1,M-HELA,,EC50,plaque count,Serotype 36,3.9 µM
CSc1nsc(-c2ccc(OCCCOc3ccc([N+](=O)[O-])cc3)cc2)c1C#N,HELA-OHIO,,EC50,cytopathic effect,Serotype 45 (group A),>1 µM
CN(C)c1nc(C(F)(F)F)nc2c1ncn2Cc1ccc(F)cc1,M-HELA,8 µM,inhibition,plaque count,Serotype 3,35%
O=S(=O)([O-])c1ccc2c(NS(=O)(=O)c3ccccc3)cc(S(=O)(=O)[O-])cc2c1,Human amnion AV3 cells,10 µg/mL,inhibition,cytopathic effect,,5%
CSc1nsc(-c2ccc(OCCOc3ccc([N+](=O)[O-])cc3)cc2)c1C#N,HELA-OHIO,,EC50,cytopathic effect,Serotype 39 (group B),0.25 µM
CCOC(=O)/C=C/[C@H](C[C@@H]1CCNC1=O)NC(=O)[C@@H](CC(=O)[C@@H](NC(=O)c1cc(C)on1)C(C)C)Cc1ccc(F)cc1,OHIO HELA-I,,EC50,cytopathic effect / visual reading,Isolate 16,<0.01 µg/mL
CN(C)c1nc(C(F)(F)F)nc2c1ncn2Cc1ccc(Cl)cc1Cl,M-HELA,8 µM,inhibition,plaque count,Serotype 13,20%
CSc1nsc(-c2ccc(OCCCc3ccccc3)cc2)c1C#N,HELA-OHIO,,EC50,cytopathic effect,Serotype 51 (group B),>20 µM

The first 2 rows once more:

{"structure": "O=S(=O)([O-])c1cc(O)c2ccccc2c1", "cell line": "Human amnion AV3 cells", "dose": "10 µg/mL", "endpoint": "inhibition", "read by": "cytopathic effect", "value": "0%"}
{"structure": "Cc1cc(CCCCCOc2c(Cl)cc(C3=NCCO3)cc2Cl)on1", "cell line": "HeLa", "endpoint": "EC50", "read by": "plaque count", "strain": "TYPE 36", "value": "0.007 µg/mL"}